Measured values taken from patent US11311012B1, “Bacterial control in fermentation systems” (Clean Chemistry, Inc., priority 2017, dated 2022).

Details: 8-9 ppm, 1% NaCl water, 22-24° C., two weeks

## O=O [Dissolved Oxygen]
Carbon steel
  Corrosion rate, C1018: 27.65 mils/year
  Corrosion rate, Ductile: 34.02 mils/year
  Corrosion rate, pipe L80: 37 mils/year
Other materials (water pipe copper alloy)
  Corrosion rate, CDA122: 4.56 mils/year
Other materials
  Corrosion rate, Al 6061: 9.52 mils/year
Stainless steel
  Corrosion rate, 17-4 PH: 0.000 mils/year
  Corrosion rate, 304L: 0.08 mils/year
  Corrosion rate, CA6NM: 0.97 mils/year
  Corrosion rate, CD4MCUN: 0.10 mils/year
